Anti-infective test results gathered from many reports (values: NIAID ChemDB through PubChem).

Common to all: whole-cell or culture tests; organism: Hepatitis B virus; measure: EC50

Blank or dashed fields: not listed here. Lines come from different laboratories, so protocols vary. ECn is the concentration giving n% inhibition of infection, replication or growth.

| structure | read by | strain or isolate | setting | cell line | result |
|---|---|---|---|---|---|
| Cc1nc(N)c2ncn(CC(CO)OCP(=O)(O)O)c2n1 | - | - | - | HB611 | 200 µM |
| CC1=C(O)C(=O)C=C2C1=CC=C1[C@@]2(C)CC[C@@]2(C)[C@@H]3C[C@](C)(C(=O)NC(C)C)CC[C@]3(C)CC[C@]12C | ELISA / antigen | - | - | HepG2 2.2.15 | 15.9 µM |
| Nc1nc2c(ncn2C[C@H](CO)OCP(=O)(O)O)c(=O)[nH]1 | - | - | - | HB611 | <16 µM |
| O[N+](CCc1c[nH]c2ccccc12)(CC1CC1)CC1CC1 | PCR / fluorescence | - | - | HepG2.2.15 | >100 µM |
| Nc1ncnc2c1ncn2CCOCP(=O)(O)O | antigen / luminescence | Genotype A | - | - | 16 µM |
| CCCc1cc(=O)oc2cc(OCC(C)(C)C(=O)OC)c3c(c12)OC(C)(C)C=C3 | hybridisation | - | - | - | 4 µg/mL |
| CC(C)=CCC[C@](C)(OC1OC(COC2OCC(O)C(O)C2O)C(O)C(O)C1O)[C@H]1CC[C@]2(C)[C@@H]1[C@H](O)C[C@@H]1[C@@]3(C)CC[C@H](O)C(C)(C)[C@@H]3[C@@H](OC3OC(CO)C(O)C(O)C3OC3OC(CO)C(O)C(O)C3O)C[C@]12C | PCR | - | 2 d | HepG2.2.15 | 4.078 µM |
| COc1cc2ccc(=O)oc2cc1O | ELISA / antigen | - | - | HepG2.2.15 | 2910 µM |
| CCC(CCC(C)C1CCC2C3C[C@@H](O)[C@@]4(O)C[C@@H](O)CCC4(C)C3CCC12C)C(C)C | antigen | - | - | HepG2 2.2.15 | >100 µg/mL |
| CCCNC(=O)[C@]1(C)CC[C@]2(C)CC[C@]3(C)C4=CC=C5C(=CC(=O)C(O)=C5C)[C@]4(C)CC[C@@]3(C)[C@@H]2C1 | ELISA / antigen | - | - | HepG2 2.2.15 | 29.7 µM |
| Nc1ncnc2c1ncn2C[C@@H](CO)OCP(=O)(O)O | - | - | - | HB611 | 1.1 µM |
| CC1=C(O)C(=O)C=C2C1=CC=C1[C@@]2(C)CC[C@@]2(C)[C@@H]3C[C@](C)(C(=O)N4CCCC4)CC[C@]3(C)CC[C@]12C | ELISA / antigen | - | - | HepG2 2.2.15 | 24.1 µM |
| O=Cc1cc(O)c(O)c(O)c1 | PCR | - | - | HepG2.2.15 | 27.17 µM |
| Cc1cn([C@H]2O[C@@H](CO)[C@H](O)[C@H]2F)c(=O)[nH]c1=O | - | DUAL | - | - | >100 µM |
| Nc1ccn([C@@H]2CS[C@H](CO)O2)c(=O)n1 | - | Mutation M552I | - | Huh7 | >80 µM |
| Cc1c(O)c(O)cc2c1CC=C1[C@@]2(C)CC[C@@]2(C)[C@@H]3C[C@](C)(C(=O)O)CC[C@]3(C)CC[C@]12C | ELISA / antigen | - | - | HepG2 2.2.15 | >100 µM |
| C[N+](C)(O)CCc1c[nH]c2ccc(O)cc12 | PCR / fluorescence | - | - | HepG2.2.15 | <1 µM |
| C[C@H](Cn1cnc2c(N)ncnc21)OCP(=O)(O)O | antigen / luminescence | Genotype A | - | - | 0.034 µM |
| O[N+](CCc1c[nH]c2ccccc12)(Cc1ccccc1)Cc1ccccc1 | PCR / fluorescence | - | - | HepG2.2.15 | >100 µM |
| C[C@H]1[C@H](C)C[C@@H](C(=O)O[C@@H]2O[C@H](CO[C@@H]3O[C@H](CO)[C@@H](O[C@@H]4O[C@H](C)[C@H](O)[C@@H](O)[C@H]4O)[C@H](O)[C@H]3O)[C@@H](O)[C@H](O)[C@H]2O)C2CC[C@]3(C)C(=CC[C@@H]4[C@@]5(C)C[C@@H](O)[C@H](O)[C@@](C)(CO)[C@@H]5CC[C@]43C)[C@H]21 | antigen | - | 14 d | HepG2.2.15 | 67.8 µM |
| Nc1ncnc2c1ncn2CCOCP(=O)(O)O | - | Mutation L526M | - | HepG2 | 0.09 µM |
| Nc1nc2ncn(CCOCP(=O)(O)O)c2c(=O)[nH]1 | - | - | - | HB611 | 15 µM |
| Nc1ncnc2c1ncn2CCOCP(=O)(O)O | - | M550I | - | - | 2.7 µM |
| Nc1ncnc2c1ncn2CCOCP(=O)(O)O | ELISA | - | - | HepG2 | 4.23 µM |
| Nc1nc2c(ncn2CC(CF)OCP(=O)(O)O)c(=O)[nH]1 | - | - | - | HB611 | <16 µM |
| O=c1ccc2ccc(O)cc2o1 | PCR | - | - | HepG2.2.15 | 448 µM |
| COC(=O)[C@]1(C)CC[C@]2(C)CC[C@]3(C)C4=CCc5c(cc(OC)c(OC)c5C)[C@]4(C)CC[C@@]3(C)[C@@H]2C1 | ELISA / antigen | - | - | HepG2 2.2.15 | >100 µM |
| Nc1nc(N)c2ncn(CC(CF)OCP(=O)(O)O)c2n1 | - | - | - | HB611 | 100 µM |
| CC1=C(O)C(=O)C=C2C1=CC=C1[C@@]2(C)CC[C@@]2(C)[C@@H]3C[C@](C)(C(=O)OCc4ccc(C)cc4)CC[C@]3(C)CC[C@]12C | ELISA / antigen | - | - | HepG2 2.2.15 | 9.2 µM |
| Nc1nc2c(ncn2C[C@@H](CO)OCP(=O)(O)O)c(=O)[nH]1 | - | - | - | HB611 | 32 µM |
| C=C1CCC2[C@](C)(COC(=O)c3ccccc3C(=O)O)[C@H](OC(=O)c3ccccc3C(=O)O)CC[C@@]2(C)[C@@H]1C/C=C1\C=COC1=O | ELISA | - | - | HepG2.2.15 | >9.4 µM |
| CC1=C(O)C(=O)C=C2C1=CC=C1[C@@]2(C)CC[C@@]2(C)[C@@H]3C[C@](C)(C(=O)O)CC[C@]3(C)CC[C@]12C | ELISA / antigen | - | - | HepG2 2.2.15 | 15.1 µM |

Repeating the final 3 entries:

structure,read by,strain or isolate,setting,cell line,result
Nc1nc2c(ncn2C[C@@H](CO)OCP(=O)(O)O)c(=O)[nH]1,-,-,-,HB611,32 µM
C=C1CCC2[C@](C)(COC(=O)c3ccccc3C(=O)O)[C@H](OC(=O)c3ccccc3C(=O)O)CC[C@@]2(C)[C@@H]1C/C=C1\C=COC1=O,ELISA,-,-,HepG2.2.15,>9.4 µM
CC1=C(O)C(=O)C=C2C1=CC=C1[C@@]2(C)CC[C@@]2(C)[C@@H]3C[C@](C)(C(=O)O)CC[C@]3(C)CC[C@]12C,ELISA / antigen,-,-,HepG2 2.2.15,15.1 µM